# Share of PSTVd loop 1 variants by leaf site

Values reported by Wu et al. 2024 (doi:10.1371/journal.ppat.1012142).

The pool varies loop 1 of the PSTVd intermediate strain in the pattern CNNNNG; wild type is CCUCGG (5' to 3', with the closing base pair).

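Three N. benthamiana plants were inoculated with the whole mutant pool. Progeny were sequenced from the inoculated region (day 5), the margin of the inoculated leaf (day 10) and systemic leaves (day 12).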

Values are reads per thousand in the sample; higher means more abundant, 0 means not found.
Each value is the mean of three plants.
"Pool" is the share in the plasmid pool used as inoculum, on the same scale.
The inoculated region was read from the minus strand, the other sites from the plus strand.
IR is the inoculated region, LM the leaf margin, Sys the systemic leaves.
The authors trace changes outside the varied positions to PCR and sequencing errors or to mutation in the plant; presence does not show that a variant is infectious alone.

sequence,pool,IR,LM,Sys
CUUGUG,4.69,2.94,0.00663,0.0115
CACUGG,4.31,3.01,0.0102,0
CGGUGG,3.53,2.60,0.0203,0
CGCGGG,3.86,8.42,0.0238,0
CCCAAG,4.06,3.13,0,0.0110
CUUUUG,4.24,2.79,0.0172,0.00548
CCUUGG,3.27,11.8,0.138,0.0987
CCUGUG,3.18,2.73,0.0172,0.0128
CGAACG,3.90,2.96,0.0102,0.00548
CCGUGA,0.460,0.0916,0,0
CAAGCG,3.17,2.87,0.0102,0
CUGCGG,4.41,2.83,0,0
CGGCGG,3.46,2.73,0.00663,0.00548
CAGUUG,5.28,2.83,0,0.0224
AUAUAG,0.0131,0,0,0
CCUCGA,0.342,0.391,0.514,4.23
CGCUUG,3.73,3.09,0.0172,0
CACCUG,4.45,2.96,0,0.00548
CUAGUG,3.60,2.84,0,0
CCGCUU,0.0131,0,0,0
CUUGAG,3.53,2.84,0.00663,0.00548
CGAGUG,3.52,2.90,0.0168,0.00548
CCGUAG,3.77,2.86,0.0168,0.00548
CUGAGG,3.47,2.71,0.00704,0
GUCUAG,0.0131,0,0,0
UGUCCG,0.0131,0,0,0
CAUCCG,3.35,2.55,0,0.00677
CCGGGG,3.32,2.89,0.0137,0
CACUCG,3.65,2.76,1.26,0.389
CUCUCG,3.71,2.71,0,0
GAGUCG,0.0131,0,0,0
CUAGGG,3.27,2.57,0,0
CUGGAG,3.92,2.50,0.0203,0
CUUGCG,4.14,2.73,1.31,0.416
CCCUAG,3.49,2.86,0.0172,0.00548
CGCGAG,4.34,2.80,0.0137,0.00548
CAGAAG,3.47,2.93,0,0
CUAUGG,4.45,2.70,0.00663,0.0219
CCAUUG,3.88,3.13,0,0.00548
CCUAUG,4.36,2.87,0.0172,0.0300
CUUCCG,4.43,2.96,0,0.0110
CCUCGG,20.1,212,810,893
CUGGCG,4.45,2.88,0,0.0177
CAUAUG,4.40,3.00,0.00704,0.00548
CAGCCG,5.08,1.93,0.00704,0.0274
CCCCCG,2.93,2.60,0.0168,0
CAAUGG,3.13,2.93,0.00663,0
CCUAGG,3.44,9.30,22.8,12.2
CAAGAG,4.27,2.96,0.0102,0
CAGCAG,3.06,2.77,1.28,0.438
CGCGCG,5.03,2.99,0.00704,0.00548
CCAGCG,3.15,2.71,0.00663,0
CACAGG,3.56,2.52,0,0
CUUAGG,3.44,2.79,0.0133,0
CUACCG,3.53,2.55,0.00663,0
CCGUGG,3.40,2.73,0.00663,0
CGAAGG,3.42,2.45,0.0207,0
CGCAGG,3.49,2.78,0.0242,0

For reference, wild type rose from 20.1 per thousand in the pool to 197, 219, 222 (inoculated region), 828, 823, 779 (leaf margin) and 914, 907, 857 (systemic leaves).
Samples held 32,791 to 60,834 reads, so the smallest values rest on one or two reads.